The target of this test is monoclonal antibody 101F (mouse). As to the kind of experiment: SPR. (In SPR one partner is held on a chip, and binding of the other changes the refractive index at the surface.)

Values joined by “and” are separate entries in the source; they are usually repeats but may differ in a detail not shown here. Equal values may be shown once.

Here are results for one substance from PMC5017722.

As usually defined, the Kd is the concentration at which binding is half-saturated. Low readings indicate a tighter complex, high ones a looser complex.

On to “the soluble hMPV F proteins (fully cleaved postfusion F of NL/1/00, A1, and NL/1/99, B1)”, for which the equilibrium dissociation constant (Kd) lay in the range of 15 to 40 nM; the fold faster koff than for hRSV F turned out to be 3 fold; the fold slower kon than for hRSV F was 2 fold and 5 fold.
